Results of unrelated studies side by side (data: NIAID ChemDB).

Shared fields: whole-cell or culture tests; species: Candida albicans; endpoint: EC50

Blank or dashed fields: not listed here. Lines come from different laboratories, so protocols vary. ECn: concentration that inhibits the pathogen or its effect by n%.

| SMILES | conditions | strain | read by | cell line | result |
|---|---|---|---|---|---|
| C[C@H]1[C@H](O)[C@@H](C)/C=C/C=C/C=C/C=C/C=C/C=C/C=C/[C@H](O[C@@H]2O[C@H](C)[C@@H](O)[C@H](N)[C@@H]2O)C[C@@H]2O[C@](O)(C[C@@H](O)C[C@@H](O)CC[C@H](O)[C@@H](O)C[C@@H](O)CC(=O)O[C@H]1C)C[C@H](O)[C@H]2C(=O)O |  |  | resazurin |  | 0.08 µg/mL |
| CCCCCCCCCCCC(=O)c1c(O)cc(O)c([C@@H]2C[C@@H](c3ccc(O)cc3)Oc3cc(O)ccc32)c1O |  |  | colony count | VERO | 8.8 µg/mL |
| Cc1ncc(-c2c[nH]c3ccccc23)o1 |  |  | resazurin |  | >50 µg/mL |
| C[C@H]1[C@H](O)[C@@H](C)/C=C/C=C/C=C/C=C/C=C/C=C/C=C/[C@H](O[C@@H]2O[C@H](C)[C@@H](O)[C@H](N)[C@@H]2O)C[C@@H]2O[C@](O)(C[C@@H](O)C[C@@H](O)CC[C@H](O)[C@@H](O)C[C@@H](O)CC(=O)O[C@H]1C)C[C@H](O)[C@H]2C(=O)O |  | 32 | broth dilution |  | 2 µM |
| S=C(S)n1nnc2ccccc21 | 48 h | Clinical isolate | broth dilution / absorbance |  | >50 µg/mL |
| O=C(CCCCCCCCc1ccccc1)c1c(O)cc(O)c([C@@H]2C[C@H](c3ccc(O)cc3)Oc3cc(O)ccc32)c1O.O=C(CCCCCCCCc1ccccc1)c1c(O)cc(O)c([C@@H]2C[C@H](c3ccc(O)cc3)Oc3cc(O)ccc32)c1O |  |  | colony count | VERO | 5.9 µg/mL |
| C[n+]1c2c(Cl)cccc2cc2sc3ccccc3c21 |  | ATCC 90028 | resazurin |  | >20 µg/mL |
| COc1ccc2[nH]c3c(Cc4ccc5[nH]c6c(C)c(C)c(OC)c(O)c6c5c4)c(C)c(OC)c(O)c3c2c1 |  |  | resazurin |  | >50 µg/mL |
| C[C@H]1COC(=O)C2OC2=CC[C@H](O)[C@@H]1O |  |  | absorbance |  | 7 µg/mL |
| C[n+]1cccc(N(CCCCCC2CCCCC2)c2ccccc2C#N)c1.[I-] |  | ATCC 90028 | resazurin |  | >20 µg/mL |
| COc1c(C)c(C)c2[nH]c3ccccc3c2c1OC |  |  | resazurin |  | >50 µg/mL |
| C[n+]1c2cccc(O)c2cc2sc3ccccc3c21 |  | ATCC 90028 | resazurin |  | >20 µg/mL |
| C[n+]1c2ccccc2cc2[nH]c3c(Br)cccc3c21.[I-] |  | ATCC 90028 | resazurin |  | >20 µg/mL |
| C[C@@H]1[C@H](O)[C@@H](C)/C=C/C=C/C=C/C=C/C=C/C=C/C=C/[C@H](O[C@@H]2O[C@H](C)[C@@H](O)[C@H](N)[C@@H]2O)C[C@@H]2O[C@](O)(C[C@@H](O)C[C@@H](O)[C@H](O)CC[C@@H](O)C[C@@H](O)CC(=O)O[C@H]1C)C[C@H](O)[C@H]2C(=O)O |  |  | resazurin |  | 0.13 µM |

2 of the rows above, restated:

SMILES,conditions,strain,read by,cell line,result
C[C@@H]1[C@H](O)[C@@H](C)/C=C/C=C/C=C/C=C/C=C/C=C/C=C/[C@H](O[C@@H]2O[C@H](C)[C@@H](O)[C@H](N)[C@@H]2O)C[C@@H]2O[C@](O)(C[C@@H](O)C[C@@H](O)[C@H](O)CC[C@@H](O)C[C@@H](O)CC(=O)O[C@H]1C)C[C@H](O)[C@H]2C(=O)O,,,resazurin,,0.13 µM
C[C@H]1[C@H](O)[C@@H](C)/C=C/C=C/C=C/C=C/C=C/C=C/C=C/[C@H](O[C@@H]2O[C@H](C)[C@@H](O)[C@H](N)[C@@H]2O)C[C@@H]2O[C@](O)(C[C@@H](O)C[C@@H](O)CC[C@H](O)[C@@H](O)C[C@@H](O)CC(=O)O[C@H]1C)C[C@H](O)[C@H]2C(=O)O,,,resazurin,,0.08 µg/mL